Source: publication PMC5147791 (PLoS Neglected Tropical Diseases, 2016)

Assays:
[1] = tested on: CSC[C@H]1O[C@@H](n2cnc3c(N)ncnc32)[C@H](O)[C@@H]1O; experiment: purified protein; details: 100 mM potassium phosphate pH 7.4, room temperature
[2] = tested on: Nc1ncnc2c1ncn2[C@@H]1O[C@H](CO)[C@@H](O)[C@H]1O; experiment: purified protein; details: 100 mM potassium phosphate pH 7.4, room temperature

SmMTAP (Schistosoma mansoni; N87T)
Km [1]: 0.71 ± 0.04 µM
Vmax [1]: 0.0317 µM/min
kcat [1]: 84.6 s⁻¹
kcat/Km [1]: 1.19e+08 M⁻¹ s⁻¹
Km [2]: 3.3 ± 0.21 µM
Vmax [2]: 0.0235 µM/min
kcat [2]: 62.6 s⁻¹
kcat/Km [2]: 1.9e+07 M⁻¹ s⁻¹

SmMTAP (Schistosoma mansoni; N87T/Q289L/S12T)
Km [1]: 3.12 ± 0.12 µM
Vmax [1]: 0.0254 µM/min
kcat [1]: 254 s⁻¹
kcat/Km [1]: 8.14e+07 M⁻¹ s⁻¹
Km [2]: 7.35 ± 0.36 µM
Vmax [2]: 0.028 µM/min
kcat [2]: 280 s⁻¹
kcat/Km [2]: 3.81e+07 M⁻¹ s⁻¹

SmMTAP (Schistosoma mansoni; N87T/S12T)
Km [1]: 2.12 ± 0.08 µM
Vmax [1]: 0.0416 µM/min
kcat [1]: 416 s⁻¹
kcat/Km [1]: 1.96e+08 M⁻¹ s⁻¹
Km [2]: 3.68 ± 0.14 µM
Vmax [2]: 0.0309 µM/min
kcat [2]: 309 s⁻¹
kcat/Km [2]: 8.39e+07 M⁻¹ s⁻¹

SmMTAP (Schistosoma mansoni; Q289L)
Km [1]: 2.49 ± 0.1 µM
Vmax [1]: 0.0725 µM/min
kcat [1]: 242 s⁻¹
kcat/Km [1]: 9.7e+07 M⁻¹ s⁻¹
Km [2]: 1.81 ± 0.08 µM
Vmax [2]: 0.0359 µM/min
kcat [2]: 95.8 s⁻¹

SmMTAP (Schistosoma mansoni; S12T)
Km [1]: 1.22 ± 0.09 µM
Vmax [1]: 0.0544 µM/min
kcat [1]: 145 s⁻¹
kcat/Km [1]: 1.19e+08 M⁻¹ s⁻¹
Km [2]: 2.1 ± 0.13 µM
Vmax [2]: 0.0369 µM/min
kcat [2]: 98.4 s⁻¹
kcat/Km [2]: 4.69e+07 M⁻¹ s⁻¹
